Reference: PubChem BioAssay AID651820 (National Center for Advancing Translational Sciences (NCATS), 2012)
This is a selection; strong and weak results do not stand in their true shares. Inconclusive results are not listed. A call without a number means that no potency is given here. Activity calls are given as the source filed them. Calls follow the shape of the dose curve; as a rule, active = well fitted inhibition curve with a large enough effect; inconclusive = small, poorly fitted or top-dose-only effect, or another doubt; inactive = no such curve, though single readings can be large or run the other way.

test: qHTS Assay for Inhibitors of Hepatitis C Virus (HCV); details: Huh7.5.1 HCVcc-Cre (HCVcc is cell-culture hepatitis C virus) infection, luciferase reporter, 44 h; series mostly up to 41.8 µM
From the text: Hepatitis C virus (HCV) infects about 200 million people in the world. Many infected people progress to chronic liver disease including cirrhosis with a risk of developing liver cancer. To date, there is no effective vaccine for hepatitis C. Current therapy based on interferon is only effective in about half of the patients and is associated with significant adverse effects. The fraction of people with HCV who can complete a successful treatment is estimated to be no more than 10 percent. Recent development of direct-acting antivirals against HCV, such as protease and polymerase inhibitors, is promising but still requires combination with peginterferon and ribavirin for maximal efficacy. In addition, these agents are associated with high rate of resistance and many have significant side effects. Due to the lack of a culture system for infectious HCV, the search for new HCV drugs has been greatly hampered. […] High-throughput screening (HTS) with an infectious HCV system would cover the complete spectrum of potentially druggable targets in all stages of HCV lifecycle, and would have more biological relevance than other cell-based assays. Moreover, targeting several key processes in the viral life cycle may not only increase antiviral efficacy; more importantly, it may also reduce the capacity of the virus to develop resistance to the compound. The goal of this project is to identify novel HCV inhibitors as new therapies for hepatitis C, using a highly sensitive and specific assay platform which is based on a HCV infectious cell culture system established in the laboratory and adapted for high-throughput HCV drug screen. NIH Chemical Genomics Center [NCGC] NIH Molecular Libraries Probe Centers Network [MLPCN] MLPCN Grant: MH095511 Assay Submitter (PI): Jake Liang, NIDDK
The assay will start with plating 1,000 cells/well in 3 µL volume and culture for 4 h. Then 23 nL of compounds from the library collection will be added to each well, followed by adding 2.5 µL of HCVcc-Cre virus (~ 0.5 moi) and further cultured for 44 h before the luciferase assay. A volume of 4.5 µL luciferase substrates will be added to each well and the plates will be incubated at room temperature for 15 min. and then read for 15 sec. for the luciferase activity

Row | Structure (SMILES) | Potency
1 | CCCOP(=S)(Nc1nc(N)cc(=O)[nH]1)OCCC | inactive
2 | Nc1cccc2c([As](=O)(O)O)cccc12 | inactive
3 | COc1cc(C2NCCC3(OCCO3)C2(C)C)cc(OC)c1OC (centres undefined) | inactive
4 | CCOP(=O)(Nc1cccc2ccccc12)OCC | inactive
5 | O=[As](O)(O)c1cccnc1 | inactive
6 | COc1cc(C(=O)NCC2(N3CCOCC3)CCCCC2)cc(Cl)c1OC(C)C | inactive
7 | CS(=O)(=O)c1ccc(Cl)c(NC(=O)COC(=O)C(O)(c2ccccc2)c2ccccc2)c1 | inactive
8 | O=C(OC1CN2CCC1CC2)c1ccc(Cl)cc1 (centres undefined) | inactive
9 | Cc1cccc(OCC(=O)OC2CN3CCC2CC3)c1 (centres undefined) | inactive
10 | O=[As](O)(c1cccc(O)c1)c1cccc(O)c1 | inactive
11 | NC(=O)Nc1ccc([As](=O)(O)O)cc1 | inactive
12 | O=[N+]([O-])c1ccc2c(c1)nnn2O | inactive
13 | CN(C)C(=O)c1cc([N+](=O)[O-])cc2c1-c1c(cc([N+](=O)[O-])cc1[N+](=O)[O-])C2=O | active: 11.2 µM
14 | N#CCCN(C(=O)COC(=O)C(O)(c1ccccc1)c1ccccc1)c1ccc(F)cc1 | inactive
15 | CCOP1(=S)c2c(C)nn(CCC#N)c2N=C(c2ccc(F)cc2)N1C (centres undefined) | inactive
16 | CS(=O)(=O)c1cc([N+](=O)[O-])c2no[n+]([O-])c2c1 | inactive
17 | CCOP1(=S)c2c(C)nn(CCC#N)c2N=C(c2ccccc2F)N1C (centres undefined) | inactive
18 | O=P(Nc1nccs1)(Oc1ccccc1)Oc1ccccc1 | inactive
19 | Nc1ccccc1[As](=O)(O)c1ccccc1 | inactive
20 | O=C(O)COc1ccc([As](=O)(O)O)cc1[N+](=O)[O-] | inactive
21 | O=P1(Nc2ncccn2)COc2ccccc2OC1 | inactive
22 | Cc1ccc(OCC(=O)OC2CN3CCC2CC3)cc1 (centres undefined) | inactive
23 | O=[As](O)(c1cccs1)c1cccs1 | inactive
24 | O=P1(Nc2ccc(Br)cn2)COc2ccccc2OC1 | inactive

Row | Structure (SMILES) | Potency
25 | NS(=O)(=O)c1cccc(NC(=O)COC(=O)C(O)(c2ccccc2)c2ccccc2)c1 | inactive
26 | Nc1cccc([As](=O)(O)c2ccccc2)c1 | inactive
27 | Cc1nn(-c2ccccc2)c2c1P(=O)(N1CCOCC1)N(C)C(c1ccccc1)=N2 (centres undefined) | inactive
28 | CC1CCC(C(C)C)C(OP(=O)(Nc2ccccn2)c2ccccc2)C1 (centres undefined) | inactive
29 | Cc1ccc(C(=O)OC2CN3CCC2CC3)cc1 (centres undefined) | inactive
30 | O=C(/C=C/c1ccccc1)OC1CN2CCC1CC2 (centres undefined) | inactive
31 | CCCC1OP(=O)(Nc2ccccc2)OCC1CC (centres undefined) | inactive
32 | CN(C)C1(CNC(=O)c2ccc(S(C)(=O)=O)cc2)CCCCC1 | inactive
33 | CC1(CBr)Cn2c(nc3ccccc3c2=O)S1 (centres undefined) | inactive
34 | CC(C)/C=N\N=C(\N)N[N+](=O)[O-] | inactive
35 | CN(C(=O)Cc1ccc(Cl)c(Cl)c1)[C@@H]1CCCC[C@H]1N1CCCC1 | inactive
36 | CCOP(=O)(Nc1ccc(C)cn1)OCC | inactive
37 | CN(CCCl)Cc1cc(Cl)c(NC2=NCCN2)c(Cl)c1 | inactive
38 | O=P1(Nc2ccccn2)COc2ccccc2OC1 | inactive
39 | CCOP(=O)(NC(=NC(C)c1ccccc1)NC(C)c1ccccc1)OCC (centres undefined) | inactive
40 | Clc1n[nH]nc1-c1nn[nH][15n]1 | inactive
41 | CC(C)(C)C(=O)NC(Sc1ncccn1)C(Cl)(Cl)Cl (centres undefined) | inactive
42 | CCOC(=O)c1ccc(NC(=O)C(C)(CCl)SC)cc1 (centres undefined) | inactive
43 | O=C(OC1CN2CCC1CC2)c1cccc([N+](=O)[O-])c1 (centres undefined) | inactive
44 | CCC(C)N(CC(C)C)C(=S)SC(NC(C)=O)C(Cl)(Cl)Cl (centres undefined) | inactive
45 | COP1(=S)c2c(C)nn(CCC#N)c2N=C(c2ccc(F)cc2)N1C (centres undefined) | inactive
46 | O=C(COc1ccccc1)OC1CN2CCC1CC2 (centres undefined) | inactive
47 | O=C(Nc1ccncc1[N+](=O)[O-])c1ccc([N+](=O)[O-])cc1[N+](=O)[O-] | inactive
48 | CCOC(=O)Nc1cccc([As](=O)(O)O)c1 | inactive

Row | Structure (SMILES) | Potency
49 | O=[N+]([O-])c1ccc(Nc2ccc(Oc3ccc([N+](=O)[O-])cc3[N+](=O)[O-])cc2)c([N+](=O)[O-])c1 | inactive
50 | O=P(Nc1ccccn1)(c1cccc2ccccc12)c1cccc2ccccc12 | inactive
51 | Cc1cc(SC(NC=O)C(Cl)(Cl)Cl)ncn1 (centres undefined) | inactive
52 | CC1CCNP(=O)(N(CCCl)CCCl)O1 (centres undefined) | inactive
53 | CCOC(=O)Nc1ccc([As](=O)(O)O)c(O)c1 | inactive
54 | Cc1cc(SC(NC(=O)c2ccccc2)C(Cl)(Cl)Cl)nc(C(C)C)n1 (centres undefined) | inactive
55 | COC(=O)C1(C)COP(=O)(N2CCCCCC2)OC1 (centres undefined) | inactive
56 | ClCCSc1nnc(-c2cccnc2)o1 | inactive
57 | CC(C)NC(=O)NP(=O)(Oc1ccccc1)Oc1ccccc1 | inactive
58 | CCN(CC)C(=S)SC(NC=O)C(Cl)(Cl)Cl (centres undefined) | inactive
59 | O=C(OC1CN2CCC1CC2)c1cccc2[nH]cnc12 (centres undefined) | inactive
60 | O=[N+]([O-])c1cc([N+](=O)[O-])c(-c2ccn[nH]2)s1 | active: 10 µM
61 | O=[As](O)(c1ccc(O)cc1)c1ccccc1O | inactive
62 | C[As](=O)(O)c1cccc(C(=O)O)c1 | inactive
63 | O=[N+]([O-])c1ccc(-c2cc([N+](=O)[O-])c(O)c([N+](=O)[O-])c2)cc1 | inactive
64 | Cc1ccc(OP(=O)(Nc2ccc([N+](=O)[O-])cn2)Oc2ccc(C)cc2)cc1 | inactive
65 | COc1ccc(N/C(=N/P(=O)(N2CCOCC2)N2CCOCC2)N2CCOCC2)cc1 | inactive
66 | O=[N+]([O-])c1cc(Oc2ccc([N+](=O)[O-])cc2C(F)(F)F)cc([N+](=O)[O-])c1 | inactive
67 | Cc1cc(=O)[nH]c(N[N+](=O)[O-])n1 | inactive
68 | COc1ccc2nc(NP(=O)(c3ccccc3)c3ccccc3)sc2c1 | inactive
69 | O=P1(N(CCCl)CCCl)OCCCN1CCCl (centres undefined) | inactive
70 | O=P1(N(CCCl)CCCl)Nc2ccccc2N1 | inactive
71 | Nc1cc(N)c2nonc2c1[N+](=O)[O-] | inactive
72 | CC(C)CC(=O)NC(Sc1ccc(Cl)cc1)C(Cl)(Cl)Cl (centres undefined) | inactive

Row | Structure (SMILES) | Potency
73 | Oc1ccccc1CNc1ccccn1 | inactive
74 | O=C(NC(Sc1ccncn1)C(Cl)(Cl)Cl)c1ccccc1 (centres undefined) | inactive
75 | NC(=O)c1cc([N+](=O)[O-])cc([N+](=O)[O-])c1N | inactive
76 | C[C@H]1[C@@H](OS(=O)(=O)O)C[C@@H]2C[C@H]([C@@H](O)c3cc(=O)[nH]c(=O)[nH]3)NC3=NC[C@H]1N32 | active: 2.24 µM
77 | Cc1ccc(N/C(=N/P(=O)(N2CCOCC2)N2CCOCC2)N2CCOCC2)cc1 | inactive
78 | COc1ccccc1OP(=O)(Nc1ccc(C)cn1)Oc1ccccc1OC | inactive
79 | Cc1ccc(OP(=O)(Nc2nccs2)Oc2ccc(C)cc2)cc1 | inactive
80 | CN1CCCC(OC(=O)C(c2ccccc2)c2ccccc2)C1 (centres undefined) | inactive
81 | CCN(N=Nc1nonc1N)c1nonc1N | inactive
82 | CC(=O)Nc1ccc([As](=O)(O)O)cc1 | inactive
83 | O=C(O)c1ccccc1[As](=O)(O)O | inactive
84 | CCCC1OP(N)(=O)OCC1CC (centres undefined) | inactive
85 | O=P(Nc1nc2ccc(Cl)cc2s1)(c1ccccc1)c1ccccc1 | inactive
86 | Cc1cc(SC(NC(=O)c2ccc(F)cc2)C(Cl)(Cl)Cl)ncn1 (centres undefined) | inactive
87 | CCOP(=O)(Nc1ccccc1)OCC | inactive
88 | Cc1ccc(NP(=O)(Oc2ccccc2F)Oc2ccccc2F)nc1 | inactive
89 | CC(C)(C)C(=O)NC(Sc1ccncn1)C(Cl)(Cl)Cl (centres undefined) | inactive
90 | O=[N+]([O-])c1ncn(CCn2ncnc2[N+](=O)[O-])n1 | inactive
91 | COC(=O)C1(C)COP(=O)(Nc2ccccc2)OC1 (centres undefined) | inactive
92 | O=[N+]([O-])c1cccc(NC2=NCC(CBr)S2)c1 (centres undefined) | inactive
93 | O=C(O)CNc1ccc([As](=O)(O)O)cc1 | inactive
94 | O=P1(N(CCCl)CCCl)OCCCS1 (centres undefined) | inactive
95 | O=C(Nc1cc([As](=O)(O)O)ccc1O)c1ccccc1 | inactive
96 | Nc1ccc([As](=O)(O)c2ccc(N)cc2)cc1 | inactive

Row | Structure (SMILES) | Potency
97 | CCN(/C(=N/P(=O)(N1CCOCC1)N1CCOCC1)N1CCOCC1)c1ccc(OC)cc1 | inactive
98 | CC1=CC2OC3CC4OC(=O)/C=C/C=CC(C(C)O)OCC(O)C(C)CC(=O)OCC2(CC1O)C4(C)C31CO1 (centres undefined) | active: 10 µM
99 | CC(C)=N/N=C(\N)N[N+](=O)[O-] | inactive
100 | CN(C)C(=O)OCCc1n(C)cc[n+]1C | inactive
101 | CC1CCN(C(=O)Oc2c(Cl)cc(Cl)c3cccnc23)CC1 | inactive
102 | COc1ccc(C2=NCC(CBr)S2)cc1 (centres undefined) | inactive
103 | O=[N+]([O-])c1cccc2n[nH]nc12 | inactive
104 | CC(=O)N1C2C3N(C(C)=O)C1C1N(C(C)=O)C(C(N1C(C)=O)N3C(C)=O)N2C(C)=O | inactive
105 | Cc1ccc(NP(=O)(Oc2ccccc2)Oc2ccccc2)nc1 | inactive
106 | CC(C)C(=O)NC(Sc1ccccc1)C(Cl)(Cl)Cl (centres undefined) | inactive
107 | O=P(Nc1nccs1)(c1ccccc1)c1ccccc1 | inactive
108 | c1nnnn1CCn1cnnn1 | inactive
109 | O=[N+]([O-])c1ccc(O)c(/C=N/Nc2ccc([N+](=O)[O-])cc2[N+](=O)[O-])c1 | inactive
110 | O=[N+]([O-])c1ncn(CCn2cnc([N+](=O)[O-])n2)n1 | inactive
111 | O=[As](O)(c1ccccc1)c1ccc(O)cc1 | inactive
112 | C(Cc1nn[nH]n1)Cc1nn[nH]n1 | inactive
113 | Nc1ccc([As](=O)(O)c2ccc([N+](=O)[O-])cc2)cc1 | inactive
114 | COc1ccc(N)c([N+](=O)[O-])c1[N+](=O)[O-] | inactive
115 | O=P(Nc1ccccn1)(c1ccc(Br)cc1)c1ccc(Br)cc1 | inactive
116 | CN(C)C1(CNC(=O)c2ccc(Cl)c(S(N)(=O)=O)c2)CCCCC1 | inactive
117 | O=P(Nc1nc2ccccc2s1)(c1ccccc1)c1ccccc1 | inactive
118 | C[C@H]1OP(=O)(Oc2ccccc2)[C@H](O)[C@H](O)[C@H]1N=[N+]=[N-] (some centres undefined) | inactive
119 | COC(=O)c1cc2c(s1)N=C(c1ccccc1)N(C)P2(=O)N1CCOCC1 (centres undefined) | inactive
